{"source": "PubChem BioAssay AID1259414, Drosophila RNAi Screening Center, 2018", "purpose": "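Host factors increasing or decreasing Wolbachia levels in cultured fly cells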 (primary screen)", "cell system": "Drosophila JW18 cells infected with Wolbachia", "knock-down reagent": "long dsRNA against Drosophila genes, 0.25 µg dsRNA per well of a 384-well plate", "duration": "5 days", "challenge": "cells persistently infected with Wolbachia before knock-down; no added drug", "measurement": "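Imaged fluorescence in situ signal for Wolbachia 23S rRNA per DAPI-counted host cell, given as a robust z-score within each plate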", "direction": "Wolbachia per cell robust z: higher = more Wolbachia per host cell than the plate typical", "hit rule": "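Hit when robust z is 1.5 or more, or -1.5 or less, in at least two of three replicates; excludes dsRNAs with several or no targets, genes not expressed in JW18 and well A1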", "note": "The screen tested about 24,000 reagents; shown is a random part of those with a known target gene and a result. Over the whole deposit, about 1,210 (5%) got an active call. 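Inactive calls also include excluded dsRNAs with several or no targets, genes unexpressed in JW18, and well A1, regardless of score.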 Unmarked entries are inactive."}
{"target":"CG43795","DRSC id":"DRSC04192","Wolbachia per cell robust z, rep 1":-0.181,"Wolbachia per cell robust z, rep 2":0.428,"Wolbachia per cell robust z, rep 3":-1.46}
{"target":"CG43795","DRSC id":"DRSC04193","Wolbachia per cell robust z, rep 1":-0.0307,"Wolbachia per cell robust z, rep 2":-1.18,"Wolbachia per cell robust z, rep 3":-0.495}
{"target":"CG43795","DRSC id":"DRSC04194","Wolbachia per cell robust z, rep 1":1.45,"Wolbachia per cell robust z, rep 2":1.22,"Wolbachia per cell robust z, rep 3":1.61}
{"target":"CG43795","DRSC id":"DRSC04309","Wolbachia per cell robust z, rep 1":1.48,"Wolbachia per cell robust z, rep 2":1.43,"Wolbachia per cell robust z, rep 3":1.88}
{"target":"CG43795","DRSC id":"DRSC04310","Wolbachia per cell robust z, rep 1":0.065,"Wolbachia per cell robust z, rep 2":0.486,"Wolbachia per cell robust z, rep 3":-0.87}
{"target":"CG43795","DRSC id":"DRSC04497","Wolbachia per cell robust z, rep 1":-0.221,"Wolbachia per cell robust z, rep 2":0.821,"Wolbachia per cell robust z, rep 3":-1.61}
{"target":"CG43795","DRSC id":"DRSC22826","Wolbachia per cell robust z, rep 1":-0.158,"Wolbachia per cell robust z, rep 2":-0.152,"Wolbachia per cell robust z, rep 3":-0.043}
{"target":"CG43795","DRSC id":"DRSC25149","Wolbachia per cell robust z, rep 1":0.493,"Wolbachia per cell robust z, rep 2":0.0695,"Wolbachia per cell robust z, rep 3":0.339}
{"target":"CG43795","DRSC id":"DRSC26752","Wolbachia per cell robust z, rep 1":0.09,"Wolbachia per cell robust z, rep 2":-0.991,"Wolbachia per cell robust z, rep 3":-0.561}
{"target":"CG3702","DRSC id":"DRSC00628","Wolbachia per cell robust z, rep 1":-0.34,"Wolbachia per cell robust z, rep 2":0.505,"Wolbachia per cell robust z, rep 3":-1.07}

3 neighbouring entries from above:
{"target":"CG43795","DRSC id":"DRSC04497","Wolbachia per cell robust z, rep 1":-0.221,"Wolbachia per cell robust z, rep 2":0.821,"Wolbachia per cell robust z, rep 3":-1.61}
{"target":"CG43795","DRSC id":"DRSC22826","Wolbachia per cell robust z, rep 1":-0.158,"Wolbachia per cell robust z, rep 2":-0.152,"Wolbachia per cell robust z, rep 3":-0.043}
{"target":"CG43795","DRSC id":"DRSC25149","Wolbachia per cell robust z, rep 1":0.493,"Wolbachia per cell robust z, rep 2":0.0695,"Wolbachia per cell robust z, rep 3":0.339}

The list goes on.
{"target":"CG31365","DRSC id":"DRSC15610","Wolbachia per cell robust z, rep 1":0.338,"Wolbachia per cell robust z, rep 2":-0.0637,"Wolbachia per cell robust z, rep 3":-0.359}
{"target":"CG13747","DRSC id":"DRSC06418","Wolbachia per cell robust z, rep 1":0.776,"Wolbachia per cell robust z, rep 2":0.561,"Wolbachia per cell robust z, rep 3":0.843}
{"target":"cu","DRSC id":"DRSC15643","Wolbachia per cell robust z, rep 1":-1.21,"Wolbachia per cell robust z, rep 2":0.299,"Wolbachia per cell robust z, rep 3":0.144}
{"target":"cu","DRSC id":"DRSC15648","Wolbachia per cell robust z, rep 1":"-3.49 (active)","Wolbachia per cell robust z, rep 2":0.357,"Wolbachia per cell robust z, rep 3":-7.33}
{"target":"pcx","DRSC id":"DRSC18186","Wolbachia per cell robust z, rep 1":-4.15,"Wolbachia per cell robust z, rep 2":0.556,"Wolbachia per cell robust z, rep 3":0.566}
{"target":"pcx","DRSC id":"DRSC18187","Wolbachia per cell robust z, rep 1":0.00474,"Wolbachia per cell robust z, rep 2":0.153,"Wolbachia per cell robust z, rep 3":-0.199}
{"target":"pcx","DRSC id":"DRSC18188","Wolbachia per cell robust z, rep 1":0.468,"Wolbachia per cell robust z, rep 2":-0.0774,"Wolbachia per cell robust z, rep 3":0.0655}
{"target":"pcx","DRSC id":"DRSC18189","Wolbachia per cell robust z, rep 1":-0.587,"Wolbachia per cell robust z, rep 2":-2.55,"Wolbachia per cell robust z, rep 3":-0.927}
{"target":"pcx","DRSC id":"DRSC18190","Wolbachia per cell robust z, rep 1":0.681,"Wolbachia per cell robust z, rep 2":0.191,"Wolbachia per cell robust z, rep 3":-1.06}
{"target":"pcx","DRSC id":"DRSC18816","Wolbachia per cell robust z, rep 1":0.615,"Wolbachia per cell robust z, rep 2":0.853,"Wolbachia per cell robust z, rep 3":0.359}
